For 1 substance, Relative Activity (IVTT) and Relative IVTT score results are on record in patent publication US20090221500.

The test system of this data set is elongation factor-2 (EF-2).

“DT382 (G53E): Null construct (sequence left out)” returned a Relative Activity (IVTT) of 0.43 and a Relative IVTT score of 0.43.
